A mixed list of measured activities; the numbers were collected in NIAID ChemDB.

Common to all: whole-cell or culture tests; species: Herpes simplex virus 2

Blank or dashed fields: not listed here.

compound	cells	read by	strain	endpoint	result
O=C(NCc1ccc(Cl)cc1)c1cn2c3c(cc(CN4CCOCC4)cc3c1=O)OC(c1cccnc1)C2	HFF	plaque count	13078 (ACV-resistant)	EC50	5.5 µM
CC(C)O[C@@H]1[C@H](OC(C)C)[C@@H](COS(=O)(=O)NC(=O)O[C@H]2O[C@H](COC(=O)c3ccccc3)[C@@H](OC(=O)c3ccccc3)[C@H](OC(=O)c3ccccc3)[C@H]2OC(=O)c2ccccc2)O[C@H]1n1ccc(=O)[nH]c1=O	VERO	plaque count	Lovelace	EC50	30 µg/mL
Cc1cc([C@@H]2C[C@H](O)[C@@H](CO)O2)c(Cl)cc1F	E6SM	cytopathic effect	196	EC50	>400 µg/mL
C[C@H](Cn1cnc2c(=O)[nH]c(N)nc21)OCP(=O)(O)O	E6SM	cytopathic effect	G 196 LYONS	EC50	66 µM
Nc1nc2c(ncn2COCCO)c(=O)[nH]1	FS-71	cytopathic effect	G	EC50	0.23 µg/mL
CCOC(=O)CSc1nnc(-c2cn(-c3ccccc3)nc2-c2ccccc2)n1N	HEL	cytopathic effect	G	EC50	>80 µg/mL
CC(=O)O[C@H]1C[C@H](n2cc(C)c(=O)[nH]c2=O)O[C@@H]1COS(=O)(=O)NC(=O)O[C@H]1O[C@H](COC(=O)c2ccccc2)[C@@H](OC(=O)c2ccccc2)[C@H](OC(=O)c2ccccc2)[C@H]1OC(=O)c1ccccc1	VERO	plaque count	Lovelace	EC50	25 µg/mL
CC(C)Nc1nc(N)nc2c1ncn2/C=C1/C[C@@H]1CO	VERO	plaque count		EC50	50 µM
OC[C@H]1O[C@H](c2cc(Cl)c(F)cc2F)C[C@@H]1O	E6SM	cytopathic effect	G	EC50	>400 µg/mL
CC(C)OC1[C@H](n2ccc(=O)[nH]c2=O)O[C@H](COS(=O)(=O)NC(=O)N[C@@H]2O[C@H](COC(=O)c3ccccc3)[C@@H](OC(=O)c3ccccc3)[C@H](OC(=O)c3ccccc3)[C@H]2OC(=O)c2ccccc2)[C@H]1OC(C)C	VERO	plaque count	Lovelace	EC50	50 µg/mL
O=c1[nH]c(=O)n([C@H]2C[C@H](O)[C@@H](CO)O2)cc1I			URB	MIC	11 µg/mL
Nc1nc2c(ncn2C[C@H]2CC[C@H](P(=O)(O)O)O2)c(=O)[nH]1	VERO	plaque count	186	EC50	15 µg/mL
O=C(c1ccncc1)n1c(-c2ccc(O)cc2)nc2ccccc21			G	EC50	>4 µg/mL
OC[C@H]1O[C@H](c2cc(Br)c(F)cc2F)C[C@@H]1O	E6SM	cytopathic effect	196	EC50	>400 µg/mL
Nc1ncnc2c1ncn2N1C[C@H](CO)[C@H]1CO	VERO	cytopathic effect		EC50	34.9 µg/mL
S=c1[nH]n2c(-c3cn(-c4ccccc4)nc3-c3ccccc3)nnc2s1	HEL	cytopathic effect	G	EC50	>80 µg/mL
CCSc1ncnc2c1ncn2[C@@H]1OC2COP(=O)(O)OC2[C@H]1O			MS	MIC	100 µg/mL
O=C(c1ccncc1)n1c(-c2ccccc2Cl)nc2ccccc21			G	EC50	>20 µg/mL
C[C@@H](Cn1cnc2c(=O)[nH]c(N)nc21)OCP(=O)(O)O	E6SM	cytopathic effect	G 196 LYONS	EC50	66 µM
N#Cc1cc([C@H]2C[C@H](O)[C@@H](CO)O2)c(F)cc1F	E6SM	cytopathic effect	G	EC50	>400 µg/mL
O=C(c1ccccc1Br)n1c(-c2ccccc2[N+](=O)[O-])nc2ccccc21			G	EC50	>100 µg/mL
O=C(NS(=O)(=O)OC[C@H]1O[C@@H](n2ccc(=O)[nH]c2=O)[C@H](O)[C@@H]1O)O[C@H]1O[C@H](COC(=O)c2ccccc2)[C@@H](OC(=O)c2ccccc2)[C@H](OC(=O)c2ccccc2)[C@@H]1OC(=O)c1ccccc1	VERO	plaque count	Lovelace	EC50	>200 µg/mL
Nc1nc2c(ncn2C[C@H](CO)OCP(=O)(O)O)c(=O)[nH]1	E6SM	cytopathic effect	G 196 LYONS	EC50	1.4 µM
CC(C1=NNC(=Nc2ccccc2)SC1)N1C(=O)c2ccccc2C1=O	VERO	cytopathic effect	SAV	EC50	30 µg/mL
CC(C)(C)c1ccc(-n2cc(C(N)=O)c(=O)c3ccc(-c4ccncc4)cc32)cc1	VERO	plaque count	Curtis	EC50	>25 µg/mL
Nc1ncnc2c1ncn2C[C@H](CO)OCP(=O)(O)O	E6SM	cytopathic effect	G 196 LYONS	EC50	81 µM
O=C(c1ccncc1)n1c(-c2ccccc2[N+](=O)[O-])nc2ccccc21			G	EC50	>20 µg/mL
Nc1nc(=O)n([C@H]2C[C@H](O)[C@@H](CO)O2)cc1F	HeLa	virus yield		EC90	5 µM
Nc1nc2c(ncn2C[C@H]2CC[C@@H](P(=O)(O)O)O2)c(=O)[nH]1	VERO	plaque count	186	EC50	>100 µg/mL
O=c1[nH]c(=O)n([C@H]2C[C@H](O)[C@@H](CO)O2)cc1/C=C/Br	HELA BU	plaque count	333	EC50	<10 µM
Nc1nc2c(ncn2C[C@]2(CO)C[C@H]2CO)c(=O)[nH]1	MRC-5	plaque count	6 isolates	EC50	0.15 µg/mL
O=c1[nH]c(=O)n([C@H]2C[C@H](O)[C@@H](CO)O2)cc1/C=C/Br	PRK	virus yield	G	EC99	3 µg/mL
CC(=O)Nn1c(-c2cn(-c3ccccc3)nc2-c2ccccc2)n[nH]c1=S	HEL	cytopathic effect	G	EC50	>80 µg/mL
OC[C@H]1O[C@H](c2cncc(Br)c2)[C@@H](O)[C@@H]1O	E6SM	cytopathic effect	G	EC50	≥100 µg/mL
C[C@H](Cn1cnc2c(N)nc(N)nc21)OCP(=O)(O)O	E6SM	cytopathic effect	G 196 LYONS	EC50	232 µM
OC[C@H]1O[C@@H](c2cc(Br)c(F)cc2F)C[C@@H]1O	E6SM	cytopathic effect	196	EC50	>400 µg/mL
CCC(=O)C(CCCc1ccc(O)cc1)C(=O)CC				MIC	>50 µg/mL
O=c1[nH]c(=O)n([C@H]2C[C@H](O)[C@@H](CO)O2)cc1I	PRK	virus yield	G	EC99	0.8 µg/mL
N#Cc1cncc([C@H]2O[C@H](CO)[C@H](O)[C@@H]2O)c1	E6SM	cytopathic effect	G	EC50	≥100 µg/mL
COc1cc(F)c([C@H]2C[C@H](O)[C@@H](CO)O2)cc1[N+](=O)[O-]	E6SM	cytopathic effect	196	EC50	>400 µg/mL
NC(=S)c1cncc([C@@H]2O[C@H](CO)[C@@H](O)[C@@H]2O)c1	E6SM	cytopathic effect	G	EC50	≥100 µg/mL
O=C(C[C@H]1C(O)O[C@@H]2COC(=O)c3cc(Oc4c(C(=O)O)cc(O)c(O)c4O)c(O)c(O)c3C3=C(O)C(O)=C(O)C[C@H]3C(=O)O[C@H]2[C@@H]1OC(=O)c1cc(O)c(O)c(O)c1)c1cc(O)c(O)c(O)c1	VERO	XTT		EC50	>200 µg/mL
Cn1cc(C(=O)NCc2ccc(Cl)cc2)c(=O)c2cc(CN3CCOCC3)ccc21	HFF	plaque count	L6010541 (WILD TYPE)	EC50	3.6 µM
Nc1nc2c(ncn2COCCO)c(=O)[nH]1	VERO	plaque count	35D	EC50	5.6 µM
O=C(c1ccc([N+](=O)[O-])cc1)n1c(-c2ccc(O)cc2)nc2ccccc21			G	EC50	>100 µg/mL
NC(=O)c1cn(-c2ccccc2F)c2cc(-c3ccncc3)ccc2c1=O	VERO	plaque count	Curtis	EC50	>1.6 µg/mL
O=c1[nH]cnc2c1ncn2OCCOCP(=O)(O)O	MRC-5	plaque count	MS	EC50	>340 µg/mL
O=P1(O)OCC2O[C@@H](n3cnc4c(=S)nc[nH]c43)[C@H](O)C2O1			MS	MIC	3.2 µg/mL
CC(C)O[C@@H]1[C@H](OC(C)C)[C@@H](COS(=O)(=O)NC(=O)O[C@H]2O[C@H](COCc3ccccc3)[C@H](OCc3ccccc3)[C@H](OCc3ccccc3)[C@H]2OCc2ccccc2)O[C@H]1n1ccc(=O)[nH]c1=O	VERO	plaque count	Lovelace	EC50	50 µg/mL
O=c1[nH]c(=O)n([C@H]2C[C@H](O)[C@@H](CO)O2)cc1/C=C/C(F)(F)F	HELA BU	plaque count	333	EC50	<10 µM
O=c1[nH]c(=O)n([C@H]2C[C@H](O)[C@@H](O)O2)cc1C#Cc1ccc2c3cccc4cccc(c5cccc1c52)c43	VERO		186	EC50	0.052 µM
O=C(c1ccncc1)n1c(-c2cccc(Cl)c2)nc2ccccc21			G	EC50	>100 µg/mL
Nc1nc2c(ncn2CC(CO)OCP(=O)(O)O)c(=O)[nH]1	WI-38	plaque count	Curtis	EC50	1 µM
Nc1nc(=S)n([C@@H]2O[C@H](CO)[C@@H](O)[C@@H]2O)cc1F			G	EC50	0.92 µg/mL
Cc1cccc(C)c1N(CC(=O)Nc1ccc(-c2ncon2)cc1)C(C)C1CCS(=O)(=O)CC1	Vero Cells + HEF cells	plaque count	Genital isolate	EC50	0.012 µM
CC(C)O[C@@H]1[C@H](OC(C)C)[C@@H](COS(=O)(=O)NC(=O)O[C@H]2C[C@@H](OC(=O)c3ccccc3)[C@H](OC(=O)c3ccccc3)[C@@H](COC(=O)c3ccccc3)O2)O[C@H]1n1ccc(=O)[nH]c1=O	VERO	plaque count	Lovelace	EC50	50 µg/mL
Cc1cc([C@@H]2C[C@H](O)[C@@H](CO)O2)c(F)cc1F	E6SM	cytopathic effect	196	EC50	>400 µg/mL
O=c1[nH]c(=O)n([C@H]2C[C@H](O)[C@@H](CO)O2)cc1F	HeLa	virus yield		EC90	>250 µM
Nc1nc2c(ncn2CCCCO)c(=O)[nH]1	VERO	plaque count	B4327 UR2	EC50	13 µM
Nc1ncc2ncn(C[C@H](CF)OCP(=O)(O)O)c2n1	E6SM	cytopathic effect	G 196 LYONS	EC50	>600 µM
c1ccc(C2=Nn3c(nnc3-c3cn(-c4ccccc4)nc3-c3ccccc3)SC2)cc1	HEL	cytopathic effect	G	EC50	>3.2 µg/mL
Nc1nc2c(ncn2C[C@@H](CF)OCP(=O)(O)O)c(=O)[nH]1	E6SM	cytopathic effect	G 196 LYONS	EC50	218 µM
NC(=S)c1cncc([C@H]2O[C@H](CO)[C@@H](O)[C@@H]2O)c1	E6SM	cytopathic effect	G	EC50	≥100 µg/mL
COc1ccccc1-c1nc2ccccc2n1C(=O)c1ccc([N+](=O)[O-])cc1			G	EC50	>100 µg/mL
NC1=Nn2c(nnc2-c2cn(-c3ccccc3)nc2-c2ccccc2)SC1	HEL	cytopathic effect	G	EC50	>16 µg/mL
Cc1cc([C@H]2C[C@H](O)[C@@H](CO)O2)c(F)cc1F	E6SM	cytopathic effect	196	EC50	>400 µg/mL
O=C(c1ccncc1)n1c(-c2ccc([N+](=O)[O-])cc2)nc2ccccc21			G	EC50	>100 µg/mL
O=c1ccn([C@H]2C[C@H](O)[C@@H](CO)O2)c(=O)[nH]1	HeLa	virus yield		EC50	<50 µM

The first 5 rows once more:

compound | cells | read by | strain | endpoint | result
O=C(NCc1ccc(Cl)cc1)c1cn2c3c(cc(CN4CCOCC4)cc3c1=O)OC(c1cccnc1)C2 | HFF | plaque count | 13078 (ACV-resistant) | EC50 | 5.5 µM
CC(C)O[C@@H]1[C@H](OC(C)C)[C@@H](COS(=O)(=O)NC(=O)O[C@H]2O[C@H](COC(=O)c3ccccc3)[C@@H](OC(=O)c3ccccc3)[C@H](OC(=O)c3ccccc3)[C@H]2OC(=O)c2ccccc2)O[C@H]1n1ccc(=O)[nH]c1=O | VERO | plaque count | Lovelace | EC50 | 30 µg/mL
Cc1cc([C@@H]2C[C@H](O)[C@@H](CO)O2)c(Cl)cc1F | E6SM | cytopathic effect | 196 | EC50 | >400 µg/mL
C[C@H](Cn1cnc2c(=O)[nH]c(N)nc21)OCP(=O)(O)O | E6SM | cytopathic effect | G 196 LYONS | EC50 | 66 µM
Nc1nc2c(ncn2COCCO)c(=O)[nH]1 | FS-71 | cytopathic effect | G | EC50 | 0.23 µg/mL

Conditions beyond the fields shown may differ between rows. ECn: concentration that inhibits the pathogen or its effect by n%.